{"source": "patent US20230265170A1", "experiment_in_all_cases": "cell-based or functional assay", "key": {"[1]": {"target": "SARS-CoV-2 Omicron BA.1 spike (S) protein of the live isolate (SARS-CoV-2)"}, "[2]": {"target": "SARS-CoV-2 Gamma (P.1) spike (S) protein (SARS-CoV-2) (UniProt P0DTC2)"}, "[3]": {"target": "SARS-CoV-2 Omicron BA.1.1 spike (S) protein (SARS-CoV-2)"}, "[4]": {"target": "SARS-CoV-2 Victoria spike (S) protein (SARS-CoV-2)"}, "[5]": {"target": "SARS-CoV-2 Beta (B.1.351) spike (S) protein (SARS-CoV-2) (UniProt P0DTC2)"}, "[6]": {"target": "SARS-CoV-2 spike (S) protein, Victoria strain (Wuhan + S247R) (SARS-CoV-2)"}, "[7]": {"target": "SARS-CoV-2 spike (S) protein, Victoria strain (SARS-CoV-2)"}, "[8]": {"target": "SARS-CoV-2 Alpha (B.1.1.7) spike (S) protein (SARS-CoV-2) (UniProt P0DTC2)"}, "[9]": {"target": "SARS-CoV-2 Delta (B.1.617.2) spike (S) protein (SARS-CoV-2) (UniProt P0DTC2)"}, "[10]": {"target": "SARS-CoV-2 Victoria spike (S) protein (Wuhan + S247R) (SARS-CoV-2)"}, "[11]": {"target": "SARS-CoV-2 spike (S) protein, Victoria strain (SARS-CoV-2)", "remark": "listed apart in the source"}}, "note": "Like-named read-outs stand apart in the source and are kept apart here.", "data": [{"substance": "ADG20 (antibody)", "values": [{"measurement": "IC50 (ug/ml), authentic virus", "setting": "[1]", "result": 1.1, "unit": "µg/mL"}, {"measurement": "IC50 (ug/ml), authentic virus", "setting": "[2]", "result": 0.009, "unit": "µg/mL"}, {"measurement": "IC50 (ug/ml), authentic virus", "setting": "[3]", "result": 1.27, "unit": "µg/mL"}, {"measurement": "IC50, pseudoviral neutralization", "setting": "[3]", "result": 253, "unit": "ng/mL"}, {"measurement": "IC50 (ug/ml), authentic virus", "setting": "[4]", "result": 0.004, "unit": "µg/mL"}, {"measurement": "IC50 (ug/ml), authentic virus", "setting": "[5]", "result": 0.01, "unit": "µg/mL"}, {"measurement": "IC50 (pseudovirus neutralization)", "setting": "[6]", "result": 5, "unit": "ng/mL"}, {"measurement": "IC50, pseudovirus", "setting": "[7]", "result": 3, "unit": "ng/mL"}, {"measurement": "IC50 (ug/ml), authentic virus", "setting": "[8]", "result": 0.006, "unit": "µg/mL"}, {"measurement": "IC50 (ug/ml), authentic virus", "setting": "[9]", "result": 0.006, "unit": "µg/mL"}, {"measurement": "IC50, pseudoviral neutralization", "setting": "[10]", "result": 3, "unit": "ng/mL"}, {"measurement": "IC50, pseudovirus", "setting": "[11]", "result": 8, "unit": "ng/mL"}]}]}
